Source: article doi:10.1101/2024.08.19.608619, “Discovery of potent SARS-CoV-2 nsp3 macrodomain inhibitors uncovers lack of translation to cellular antiviral response” (bioRxiv, 2024)

Each molecule was assayed on SARS-CoV-2, isolate USA-WA1/2020. Conditions: HeLa-ACE2 SARS-CoV-2 antiviral effect without P-gp inhibitor; dose-response fit.
Format: cell-based

Question: `CC(C)[C@H](Nc1ncnc2[nH]c(-c3cnn(C)c3C#N)cc12)c1ccc2c(n1)OCCO2` [ASAP-0010715] was tested. Which hill_slope did it give?
Answer: The hill_slope was -1.629.

Question: Which hill_slope does the source give for `CC(C)[C@@H](Nc1ncnc2[nH]c(-c3cnn(C)c3C#N)cc12)c1ccc2c(n1)OCCO2` [ASAP-0010716] here?
Answer: The hill_slope was -1.375.

Question: Which hill_slope does the source give for `CNCc1cc(-c2cc3c(N[C@@H](c4ccc5c(c4)S(=O)(=O)CCC5)C(C)C)ncnc3[nH]2)co1` [ASAP-0011176] here?
Answer: The hill_slope was -1.471.

Question: `CC(C)C(Nc1ncnc2[nH]c(C(=O)NC3CCN(C)C3)cc12)c1ccc2c(c1)S(=O)(=O)CCC2` (stereo not shown) [ASAP-0011198] was tested. Which hill_slope did it give?
Answer: Its hill_slope is -0.788.

Question: How did the hill_slope turn out when `Cn1ncc(-c2cc3c(N[C@@H](c4ccc5c(n4)OCCO5)C(C)(C)C)ncnc3[nH]2)c1C#N` [ASAP-0011221] was run?
Answer: The hill_slope was -0.781.

Question: With `Cc1nn(C)cc1-c1cc2c(NC(c3ccc4c(c3)S(=O)(=O)CCC4)C(C)C)ncnc2[nH]1` (stereo not shown) [ASAP-0011446] as the molecule, how does the hill_slope read?
Answer: The hill_slope was -2.191.

Question: Which hill_slope does the source give for `COc1ccc([C@H](Cc2nnn[nH]2)NC(=O)c2ncnc3[nH]ccc23)cc1` [ASAP-0015381] here?
Answer: The hill_slope was -1.346.
